ChEMBL document CHEMBL1144867, “Antiviral amphipathic oligo- and polyribonucleotides: analogue development and biological studies” (J Med Chem, 2003)

Tested on: MRC5
Test: Inhibitory activity of compound against human cytomegalovirus (HCMV) in MRC-5 cells.

Structure (SMILES) | EC50
C#CCn1cnc2c(ncn2[C@@H]2O[C@H](COC)[C@@H](OP(C)(=O)O)[C@H]2OC)c1=O | 560 nM
C#CCn1cnc2c(ncn2[C@@H]2O[C@H](COC)[C@@H](OP(C)(=O)O)[C@H]2O)c1=O | 19 nM
CCCn1cnc2c(ncn2[C@@H]2O[C@H](COC)[C@@H](OP(C)(=O)O)[C@H]2OC)c1=S | 1300 nM
